Assay results taken from US20250066456A1 (NOVAVAX, published 2025).

Tests used:
[1] = molecular target: Mu CoV S glycoprotein (recombinant); assay: hACE2 receptor inhibition ELISA on coated rS; competitor hACE2-His
[2] = molecular target: XBB CoV S glycoprotein (recombinant); assay: as above
[3] = molecular target: Mu CoV S glycoprotein (recombinant); assay: ELISA on coated rS
[4] = molecular target: XBB CoV S glycoprotein (recombinant); assay: ELISA on coated rS
[5] = molecular target: Mu CoV S glycoprotein (recombinant); assay: ELISA, plate coated with rS, serial dilution of the mAb, anti-mouse HRP, A450
[6] = molecular target: XBB CoV S glycoprotein (recombinant); assay: hACE2 receptor inhibition ELISA on coated rS; competitor hACE2-His; remark: listed apart in the source
[7] = molecular target: XBB CoV S glycoprotein (recombinant); assay: ELISA on coated rS; remark: listed apart in the source
[8] = molecular target: Mu CoV S glycoprotein (recombinant); assay: ELISA, plate coated with rS, serial dilution of the mAb, anti-mouse HRP, A450; remark: listed apart in the source

B1: 35.13 (antibody, V domains shown)
VH: QVQLQQSGAELGKPGASVKLSCRASGYTFTRYYIYWVKQRPGQGLEWIGEINPSNGDTHFNEKFKTKATLTVDKSSSSAHIHLTSLTSEDSAVYYCSIHAYSFDFWGQGTTLTVSS
VL: EIQMTQSPSSMSASLGDRITITCQATQDIVKNLNWYQQKPGKPPSFLIYHATELAKGVPSRFSGSGSGSDYSLTISNLESEDFADYYCLQFYDFPFTFGAGTKLELKR
B1 showed an IC50 [1] of 0.982 µg/mL, an IC50 [2] of over 3 µg/mL and an EC50 [3] of 0.179 µg/mL.

B2: 239.12 (antibody, V domains shown)
VH: EVKLEESGPVLVKPSQSLSLTCTVTGYSITSDYAWNWIRQFPGNKLEWMGYISNSAGTSYNPSLKSRISITRDTSKNQFFLQLNSVTTEDTATYYCASGGWSSYYAMDYWGQGTSVTVSS
VL: DIQMTQSPASLSASVGETVTITCGASENIYGALNWYQRKQGKSPQLLIYGATNLADGMSSRFSGSGSGRQYSLKISSLHPDDVATYYCQNVLSTPYTFGGGTKLEIKR
In the case of B2, the IC50 [2] is reported as over 3 µg/mL.

B3: 322.3 (antibody, V domains shown)
VH: RVQLQQSGPELVKPGASVTISCKASGYIFTSDYIHWVKQRPGQGPEWIGWIYPGNINTKYNEKFKGKATLTADKSSSTAYMQLSSLTSEDSAVYFCARDDGNLYYYAMDYWGQGTSVTVSS
VL: NIVLTQSPASLAVSLGQRATISCRASESVDSYGSSFMHWYQQKPGQPPKLLIYLASNLESGVPARFSGSGSRTDFTLTIDPVEADDAATYYCQQNNEDPRTFGGGTKLEIK
For B3, the EC50 [4] was 0.111 µg/mL, the EC50 [5] was 0.151 µg/mL and the IC50 [2] was 0.13 µg/mL.

B4: 199.9 (antibody, V domains shown)
VH: LVQLQQPGAELVKPGASVKLSCKASGYTFTSYFMYWVRQRPGQGLEWIGEINPSNGGNDFNEKFKSKATLTVDKSSSTAYMQLSSLTSEDSAVYYCTRSGDYGYDGFAYWGQGTLVTVSA
VL: NIVLTQSPASLAVSLGQRATISCRASESVDTYGNSFMHWYQQKPGQPPKLLIYLASNLESGVPARFSGSGSRTDFTLTIDPVEADDAATYYCQQNNEDPLTFGAGTKLELK
For B4, the IC50 [6] was 3.78 µg/mL and the EC50 [7] was 3.87 µg/mL.

B5: 425.6 (antibody, V domains shown)
VH: VQLKQSGPSLVQPSQSLSITCTVSGFSLTSYGIHWVRQSPGKGLEWLGVIWRGGSTDYNAAFMSRLTITKDNSKSQVFFKMNSLQADDTAIYYCATHTEGDDVDYWGQGTSVTVSS
VL: QIVLTQSPAIMSVSPGEKVTMTCSASSTMSFMYWYQQKPGSSPRLLIYDTSNLASGVPVRFSGSGSGTSYSLTISRVEAEDAATYYCQQWNTYPLTFGAGTKLELKR
Binder B5 has an IC50 [2] of over 3 µg/mL and an EC50 [8] of 0.019 µg/mL.

Where two headings read alike, the source gives them in different places.
